Measured values from several laboratories, pooled; numbers as filed in NIAID ChemDB.

Shared fields: tests in culture; agent: HIV-2; cell line: CEM + CEM-SS; endpoint: EC50

Neighbouring rows are from separate reports.

{"SMILES": "CCOP(=O)(/C=C/n1cnc2c(=O)[nH]c(NC(C)=O)nc21)OCC", "strain or isolate": "ROD", "value": ">200 µM"}
{"SMILES": "Cc1ccnc2c1NC(=O)c1cccnc1N2C1CC1", "method": "cytopathic effect / XTT", "value": ">38 µM"}
{"SMILES": "CCOP(=O)(/C=C/n1ccc(=O)[nH]c1=O)OCC", "strain or isolate": "ROD", "value": ">200 µM"}
{"SMILES": "Cc1ccnc2c1NC(=O)c1cccnc1N2C1CC1", "strain or isolate": "ROD", "method": "XTT", "value": ">38 µM"}
{"SMILES": "CC(C)(C)OC(=O)N[C@@H](Cc1ccccc1)[C@H](O)CNC[C@@H](O)[C@H](Cc1ccccc1)NC(=O)C(C)(O)C(C)(C)C", "strain or isolate": "CBL-20", "method": "cytopathic effect / XTT", "value": "0.16 µM"}
{"SMILES": "CCOP(=O)(/C=C\\n1cc(CO)c(=O)[nH]c1=O)OCC", "strain or isolate": "ROD", "value": ">200 µM"}
{"SMILES": "CCCc1cc(=O)oc2c3c(c4c(c12)OC(C)(C)C=C4)O[C@@H](C)[C@H](C)[C@@H]3O", "strain or isolate": "ROD", "method": "XTT", "value": ">10 µM"}
{"SMILES": "CCCc1cc(=O)oc2c3c(c4c(c12)OC(C)(C)C=C4)O[C@H](C)[C@@H](C)[C@@H]3O", "strain or isolate": "ROD", "method": "cytopathic effect / XTT", "value": ">10 µM"}
{"SMILES": "O=S1(c2ccccc2)=NC(=S)Nc2ccccc21", "strain or isolate": "ROD", "method": "cytopathic effect / XTT", "value": ">73 µM"}
{"SMILES": "CC(C)=CCN1Cc2cc(Cl)cc3[nH]c(=S)n(c23)C[C@@H]1C", "strain or isolate": "ROD", "method": "cytopathic effect / MTT", "value": ">310 µM"}
{"SMILES": "CC(C)=CCN1Cc2cccc3[nH]c(=S)n(c23)C[C@@H]1C", "strain or isolate": "CBL-20", "method": "cytopathic effect / XTT", "value": ">100 µM"}
{"SMILES": "CC(C)c1cc(=O)oc2c3c(c4c(c12)OC(C)(C)C=C4)O[C@@H](C)[C@H](C)C3=O", "strain or isolate": "ROD", "value": "0.17 µM"}
{"SMILES": "Cc1c(Sc2ccccc2)n(COCCO)c(=O)[nH]c1=O", "strain or isolate": "ROD", "method": "cytopathic effect / XTT", "value": ">325 µM"}
{"SMILES": "CC(C)c1cc(=O)oc2c3c(c4c(c12)OC(C)(C)C=C4)C[C@H](C)[C@@H](C)[C@@H]3O", "strain or isolate": "ROD", "value": ">10 µM"}
{"SMILES": "Cc1cn([C@H]2C[C@H](N=[N+]=[N-])[C@@H](CO)O2)c(=O)[nH]c1=O", "strain or isolate": "NIH-A7", "method": "cytopathic effect / XTT", "value": "0.014 µM"}
{"SMILES": "Cc1cn([C@H]2C[C@H](N=[N+]=[N-])[C@@H](CO)O2)c(=O)[nH]c1=O", "method": "cytopathic effect / XTT", "value": "0.02 µM"}
{"SMILES": "CC(C)=CCN1Cc2cccc3[nH]c(=S)n(c23)C[C@@H]1C", "method": "cytopathic effect / XTT", "value": ">35 µM"}
{"SMILES": "Cc1ccnc2c1NC(=O)c1cccnc1N2C1CC1", "strain or isolate": "ROD", "method": "cytopathic effect / XTT", "value": ">38 µM"}
{"SMILES": "CC(=O)Nc1nc2c(ncn2/C=C/P(=O)(O)O)c(=O)[nH]1", "strain or isolate": "ROD", "value": ">200 µM"}
{"SMILES": "CC1=CC(=O)C(C)(C2=NC(C)(C)CO2)c2ccccc21", "strain or isolate": "CBL-20", "method": "cytopathic effect / XTT", "value": ">1000 µM"}
{"SMILES": "CCOP(=O)(/C=C\\n1cc(C)c(=O)[nH]c1=O)OCC", "strain or isolate": "ROD", "value": ">200 µM"}
{"SMILES": "CC(C)(C)NC(=O)[C@@H]1C[C@@H]2CCCC[C@@H]2CN1C[C@@H](O)[C@H](Cc1ccccc1)NC(=O)[C@H](CC(N)=O)NC(=O)c1ccc2ccccc2n1", "strain or isolate": "ROD", "method": "RT activity", "value": "0.002 µM"}
{"SMILES": "Cc1cn([C@H]2C[C@H](N=[N+]=[N-])[C@@H](CO)O2)c(=O)[nH]c1=O", "strain or isolate": "MS", "method": "cytopathic effect / XTT", "value": "0.003 µM"}
{"SMILES": "Cc1cn([C@H]2C[C@H](N=[N+]=[N-])[C@@H](CO)O2)c(=O)[nH]c1=O", "strain or isolate": "ROD", "method": "XTT", "value": "0.005 µM"}
{"SMILES": "CCc1c(Sc2ccccn2)n(COCc2ccccc2)c(=O)[nH]c1=O", "method": "cytopathic effect / XTT", "value": ">2.7 µM"}

For reference, 3 entries again:

SMILES | strain or isolate | method | value
CCOP(=O)(/C=C/n1ccc(=O)[nH]c1=O)OCC | ROD | - | >200 µM
CC(C)=CCN1Cc2cccc3[nH]c(=S)n(c23)C[C@@H]1C | - | cytopathic effect / XTT | >35 µM
Cc1cn([C@H]2C[C@H](N=[N+]=[N-])[C@@H](CO)O2)c(=O)[nH]c1=O | NIH-A7 | cytopathic effect / XTT | 0.014 µM

ECn: concentration that inhibits the pathogen or its effect by n%. An empty or dashed field is not shown.